Anti-infective test results gathered from many reports (values: NIAID ChemDB through PubChem).

ECn is the concentration giving n% inhibition of infection, replication or growth.

structure,read-out,protein,tested at,test,cell line,method,species,strain,value
Cc1cc(-c2ccc(N=Nc3c(N)c(S(=O)(=O)O)cc4cc(S(=O)(=O)O)ccc34)c(C)c2)ccc1N=Nc1c(N)ccc2cc(S(=O)(=O)O)ccc12,inhibition,,5 µg/mL,culture,Human amnion AV3 cells,cytopathic effect,Herpes simplex virus,,0%
Fc1ccc(N2CCCCC2)c(NC(=S)c2ccncc2)c1,inhibition,ZAP-70,10 µM,host protein,,kinase activity,,,-1%
CCOC(=O)c1ccc(OCCC2CCN(c3ccc(C)nn3)CC2)cc1,EC50,,,culture,KB,neutral red,Rhinovirus,FEB (ICAM-1 receptor group 3),0.108 µM
O=S(=O)(O)c1cc(O)c2c(O)c(N=Nc3ccccc3)c(S(=O)(=O)O)cc2c1,inhibition,,50 µg/mL,culture,Human conjunctiva cells,cytopathic effect,Herpes simplex virus,,100%
Cc1nc(NCCCCNc2ccnc3cc(Cl)ccc23)nc(-c2ccccc2[N+](=O)[O-])c1C(=O)OC(C)C,MIC99,,,culture,,,Cryptococcus gattii,23/10993,5.7 µg/mL
O=S(=O)(O)c1cccc2c(O)cccc12,inhibition,,50 µg/mL,culture,Human embryonic lung cells,cytopathic effect,Adenovirus,TYPE 3,0%
O=[N+]([O-])c1ccc(C=Nc2ccccc2O)cc1,MIC99,,,culture,,,Cryptococcus neoformans,C-3-1,8 µg/mL
O=C(Nc1ccc2cc(S(=O)(=O)[O-])cc(S(=O)(=O)[O-])c2c1)c1ccccc1,inhibition,,10 µg/mL,culture,Human conjunctiva cells,cytopathic effect,Herpes simplex virus,,0%
Fc1ccc(-c2cncc(N3CCN(c4ccncc4)CC3)n2)cc1,IC50,UL97 kinase,,target,,,Cytomegalovirus,,<10 µM
Nc1ccc2c(O)cc(S(=O)(=O)[O-])cc2c1S(=O)(=O)[O-],inhibition,,5 µg/mL,culture,Human amnion AV3 cells,cytopathic effect,Adenovirus,TYPE 3,0%
Oc1ccccc1N=Cc1ccc(F)cc1,MIC99,,,culture,,,Cryptococcus neoformans,ATCC 28957,4 µg/mL
Nc1ccc2cc([N+](=O)[O-])cc(S(=O)(=O)[O-])c2c1,inhibition,,5 µg/mL,culture,Human conjunctiva cells,cytopathic effect,Herpes simplex virus,,0%
Oc1cccc(C=Nc2ccccc2O)c1,MIC,,,culture,,broth dilution,Cryptococcus neoformans,GM,3.6 µg/mL
C=CCc1ccc(O)c(OC)c1,MIC90,,,culture,,turbidity,Candida albicans,2780,485 µg/mL
CC(=O)N[C@H]1[C@H]([C@H](O)[C@H](O)CO)OC(C(=O)O)=C[C@@H]1N=C(N)N,EC50,,,culture,MDCK,visual reading,Influenza A virus,Influenza A/Shandong/09/93 (H3N2),0.07 µM
CC(=O)c1ccc(N2CCN(c3cncc(-c4cccc(C)c4C)n3)CC2)cc1,inhibition,UL97 kinase,10 µM,target,,,Cytomegalovirus,,>15%
O=S(=O)(O)c1cc(O)c2c(O)cc(S(=O)(=O)O)cc2c1,inhibition,,5 µg/mL,culture,Human amnion AV3 cells,cytopathic effect,Adenovirus,TYPE 3,0%
Fc1ccccc1N1CCN(c2cncc(-c3ccc4ccccc4c3)n2)CC1,IC50,UL97 kinase,,target,,,Cytomegalovirus,,<10 µM
Oc1ccccc1C=Nc1ccccc1O,MIC,,,culture,,broth dilution,Cryptococcus neoformans,27JF,11.3 µg/mL
COc1cccc(N2CCN(c3cncc(-c4csc5ccccc45)n3)CC2)c1,IC50,UL97 kinase,,target,,,Cytomegalovirus,,<10 µM
Oc1ccccc1N=Cc1ccccc1,MIC,,,culture,,broth dilution,Cryptococcus neoformans,F-10,5.7 µg/mL
CC(=O)c1cccc(-c2cncc(N3CCN(c4ccccc4F)CC3)n2)c1,inhibition,UL97 kinase,1 µM,target,,,Cytomegalovirus,,<50%
Oc1ccccc1N=Cc1cccc(O)c1O,MIC99,,,culture,,,Cryptococcus gattii,29/10893,4 µg/mL
Cc1ccc(-c2cncc(N3CCN(c4cccc(C(F)(F)F)c4)CC3)n2)cc1,IC50,UL97 kinase,,target,,,Cytomegalovirus,,<100 µM
O=S(=O)(O)c1ccc2ccc(S(=O)(=O)O)cc2c1,inhibition,,5 µg/mL,culture,Human conjunctiva cells,cytopathic effect,Herpes simplex virus,,0%

A second listing of 4 rows from above:

O=S(=O)(O)c1cc(O)c2c(O)c(N=Nc3ccccc3)c(S(=O)(=O)O)cc2c1 ; read-out: inhibition ; tested at: 50 µg/mL ; test: culture ; cell line: Human conjunctiva cells ; method: cytopathic effect ; species: Herpes simplex virus ; value: 100%
O=S(=O)(O)c1cccc2c(O)cccc12 ; read-out: inhibition ; tested at: 50 µg/mL ; test: culture ; cell line: Human embryonic lung cells ; method: cytopathic effect ; species: Adenovirus ; strain: TYPE 3 ; value: 0%
Cc1nc(NCCCCNc2ccnc3cc(Cl)ccc23)nc(-c2ccccc2[N+](=O)[O-])c1C(=O)OC(C)C ; read-out: MIC99 ; test: culture ; species: Cryptococcus gattii ; strain: 23/10993 ; value: 5.7 µg/mL
Fc1ccccc1N1CCN(c2cncc(-c3ccc4ccccc4c3)n2)CC1 ; read-out: IC50 ; protein: UL97 kinase ; test: target ; species: Cytomegalovirus ; value: <10 µM

Blank or dashed fields: not listed here. A number after MIC or MFC names an inhibition level or a share of isolates. ICn: concentration for n% inhibition. Rows are shuffled and stem from different studies. Inhibition is in % at the dose shown (toxicity tests: loss of growth or viability).